Measured values reported in patent US8735414B2 (priority 2009, dated 2014).

System: HCV-poliovirus (HCV-PV) chimera in HeLa cells
Test: Compound activity evaluation using an HCV-poliovirus chimera

Row | Compound | IC50 [µM]
1 | N#Cc1c(-c2ccc(S(=O)(=O)NC(CF)CF)cn2)n(-c2ccccc2)c2cc(C3CC3)ccc12 [compound 95, 6-(3-cyano-6-cyclopropyl-1-phenyl-1H-indol-2-yl)-N-(1,3-difluoropropan-2-yl)pyridine-3-sulfonamide] | < 0.5
2 | N#Cc1c(-c2ccc(S(=O)(=O)NC(CF)CF)cn2)n(-c2ccccn2)c2ccc(F)cc12 [compound 96, 6-[3-cyano-5-fluoro-1-(pyridin-2-yl)-1H-indol-2-yl]-N-(1,3-difluoropropan-2-yl)pyridine-3-sulfonamide] | < 0.5
3 | N#Cc1c(-c2ccc(S(=O)(=O)NC(CF)CF)cn2)n(C2CCCCC2)c2ccc(F)cc12 [compound 104, 6-(3-cyano-1-cyclohexyl-5-fluoro-1H-indol-2-yl)-N-(1,3-difluoropropan-2-yl)pyridine-3-sulfonamide] | < 0.5
4 | N#Cc1c(-c2ccc(S(=O)(=O)NC(CF)CF)cn2)n(CC2CC2)c2cc(Cl)c(F)cc12 [compound 110, 6-[6-chloro-3-cyano-1-(cyclopropylmethyl)-5-fluoro-1H-indol-2-yl]-N-(1,3-difluoropropan-2-yl)pyridine-3-sulfonamide] | < 0.5
5 | N#Cc1c(-c2ccc(S(=O)(=O)NC(CF)CF)cn2)n(-c2ccccc2)c2ccc(Cl)cc12 [compound 112, 6-(5-chloro-3-cyano-1-phenyl-1H-indol-2-yl)-N-(1,3-difluoropropan-2-yl)pyridine-3-sulfonamide] | < 0.5
6 | N#Cc1c(-c2ccc(S(=O)(=O)NC(CF)CF)cn2)n(-c2ccccc2)c2ccc(F)cc12 [compound 113, 6-(3-cyano-5-fluoro-1-phenyl-1H-indol-2-yl)-N-(1,3-difluoropropan-2-yl)pyridine-3-sulfonamide] | < 0.5
7 | Cc1ccc2c(c1)c(C#N)c(-c1ncc(S(=O)(=O)NC(CF)CF)cn1)n2C1CCC1 [compound 122, 2-(3-cyano-1-cyclobutyl-5-methyl-1H-indol-2-yl)-N-(1,3-difluoropropan-2-yl)pyrimidine-5-sulfonamide] | < 0.5
8 | CC(C)NS(=O)(=O)c1cnc(-c2c(C#N)c3ccc(C4CC4)cc3n2CC2CC2)nc1 [compound 124, 2-[3-cyano-6-cyclopropyl-1-(cyclopropylmethyl)-1H-indol-2-yl]-N-(propan-2-yl)pyrimidine-5-sulfonamide] | < 0.5
9 | N#Cc1c(-c2ncc(S(=O)(=O)NC(CF)CF)cn2)n(C2CCC2)c2cc(C3CC3)ccc12 [compound 126, 2-(3-cyano-1-cyclobutyl-6-cyclopropyl-1H-indol-2-yl)-N-(1,3-difluoropropan-2-yl)pyrimidine-5-sulfonamide] | < 0.5
10 | N#Cc1c(-c2ncc(S(=O)(=O)NC(CF)CF)cn2)n(C2CCC2)c2cc(OC(F)F)ccc12 [compound 129, 2-[3-cyano-1-cyclobutyl-6-(difluoromethoxy)-1H-indol-2-yl]-N-(1,3-difluoropropan-2-yl)pyrimidine-5-sulfonamide] | < 0.5
11 | Cc1ccc2c(C#N)c(-c3ncc(S(=O)(=O)NC(CF)CF)cn3)n(C3CCC3)c2c1 [compound 132, 2-(3-cyano-1-cyclobutyl-6-methyl-1H-indol-2-yl)-N-(1,3-difluoropropan-2-yl)pyrimidine-5-sulfonamide] | < 0.5
12 | Cc1ccc2c(C#N)c(-c3ncc(S(=O)(=O)NC(CF)CF)cn3)n(C3CCCC3)c2c1 [compound 135, 2-(3-cyano-1-cyclopentyl-6-methyl-1H-indol-2-yl)-N-(1,3-difluoropropan-2-yl)pyrimidine-5-sulfonamide] | < 0.5
13 | N#Cc1c(-c2ncc(S(=O)(=O)NC(CF)CF)cn2)n(C2CCC2)c2cc(C3CC3)c(F)cc12 [compound 145, 2-(3-cyano-1-cyclobutyl-6-cyclopropyl-5-fluoro-1H-indol-2-yl)-N-(1,3-difluoropropan-2-yl)pyrimidine-5-sulfonamide] | < 0.5
14 | N#Cc1c(-c2ncc(S(=O)(=O)NC(CF)CF)cn2)n(C2CCCC2)c2cc(OC(F)(F)F)ccc12 [compound 178, 2-[3-cyano-1-cyclopentyl-6-(trifluoromethoxy)-1H-indol-2-yl]-N-(1,3-difluoropropan-2-yl)pyrimidine-5-sulfonamide] | < 0.5
15 | C[C@@H](NS(=O)(=O)c1ccc(-c2c(C#N)c3ccc(OC(F)(F)F)cc3n2C2CCC2)nc1)C(F)(F)F [compound 191, 6-[3-cyano-1-cyclobutyl-6-(trifluoromethoxy)-1H-indol-2-yl]-N-[(2R)-1,1,1-trifluoropropan-2-yl]pyridine-3-sulfonamide] | < 0.5
16 | Cc1ccc2c(c1)c(C#N)c(-c1ncc(S(=O)(=O)NC(CF)CF)cn1)n2C1CCCCC1 [compound 198, 2-(3-cyano-1-cyclohexyl-5-methyl-1H-indol-2-yl)-N-(1,3-difluoropropan-2-yl)pyrimidine-5-sulfonamide] | < 0.5
